# Screening data, single-dose tests

Source: ChEMBL document CHEMBL3988442, “University of Dundee, Small-Polar-MMV Screening Library” (2021).

Results are given as percent effect. The controls that fix the scale are not given in the record; negative values are as filed. This is part of a subset picked to be rich in strong results. A dash means the value is not listed here; it may have been measured.

Mtb glucose medium: 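Phenotypic screen: M. tuberculosis growth, glucose 7H9 medium, 3 days; the read-out is not stated. Tested at 500 µM. Direction is inferred from retests: higher values go with more growth inhibition. About 18,000 compounds were tested under these conditions; 7.9% (about 1,400) showed 50% or more at least once.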
Mtb cholesterol medium: 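Whole-cell growth test on Mycobacterium tuberculosis, read after 4 days in a medium based on cholesterol and the lipid DPPC; the read-out is not stated. Concentration: 500 µM. Direction is inferred from retests: higher values go with more growth inhibition. Of about 18,000 compounds tested this way, about 900 (5%) reached 50% or more in at least one test.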

compound,Mtb glucose medium,Mtb cholesterol medium
NC(CCO)C1CCCCC1 (configuration not stated),-6.444,-
Cn1c(=O)oc2ccc(NCc3ccco3)cc21,-3.101,-
CNCc1nc2ccccc2n1CCO,6.727,-
CC(=O)N1CCC2(CCNC2)C1 (configuration not stated),5.995,-
CCC(Oc1ccccc1C)C(=O)NN1CCOCC1 (configuration not stated),-2.737,-
CN(C)c1ccc(CN(C)[C@@H]2CCCC[C@@H]2O)cn1,13.01,-
O=C(CNC(=O)c1ccc2c(c1)OCO2)NCC1CC1,-,1.845
O=C(OCC1CC1)C1=CN2CCS(=O)(=O)N=C2C=C1,11,-
NCCCNS(=O)(=O)c1ccc(Br)c(F)c1,57.06,-
COc1cc(OC)c(N(CCO)CCO)cc1Cl,-,10.5
O=C(CC1CCCC1)NC1CCCc2[nH]c(=O)ccc21 (configuration not stated),4.925,-
CC(C)(C)C(=O)N1CCN(CCCC#N)CC1,-1.287,-
CC[C@H]1COCCN1C(=O)c1ncc(F)cc1F,4.699,-
O=C1C=CC(=O)N1c1ccccc1OC(F)F,107.4,114.3
COCC(C)NC(=O)CNc1ccc(OC)c(Br)c1 (configuration not stated),73.1,74.64
CN(C)c1ccnc(NC(=O)c2cnsn2)c1,5.229,-
Cc1cc(C(=O)N2CCN(C)CC(O)C2)sc1C (configuration not stated),-,6.598
OCCCNCC(F)(F)F,-,-0.3025
CC(=O)c1ccc(S(C)(=O)=O)c(N(C)CCC2CC2)c1,-7.17,-24.16
CCc1ccsc1C(N)=O,-,-12.36
CCC1(N)CCOCC1,-10.5,-
Cc1nc2n(c1C)CCN(Cc1ncc(Cl)n1C)C2,-,-14.33
Cn1c(CCN)nc2c(F)cccc21,14.11,-
FC(F)Oc1ccc(C2CNCCO2)cc1 (configuration not stated),39.84,22.33
Nc1c[nH]nc1C(=O)NCc1cccc(Cl)c1,21.02,-12.65
Cn1cnc(S(=O)(=O)NC2CCCCNC2=O)c1Cl (configuration not stated),14.5,-
NS(=O)(=O)CC1Cc2ccccc2C1,23.33,-
CN(C)c1ncc(CN2CCC3(CCNCC3)C2)cn1,2.526,-
Cc1cccc(S(=O)(=O)NC2CCNC2)c1Cl (configuration not stated),-1.343,-
CN1CCN(c2ccccc2C#N)CC1,13.66,-
NCc1cc(C2CC2)cs1,16.31,-
O=C(Cn1ccnc1)Nc1ccc(F)cc1,-0.03455,-14.54
CCN1CCN(c2ccc(NC(=O)C(C)C)cc2)CC1,-5.102,-
COc1ccc2c(c1)OCC(CNC(=O)CN(C)C)C2 (configuration not stated),61.32,55.29
CC(=O)Nc1nc(C(=O)NCCc2cccnc2)cs1,-3.601,-19
c1ccc(OCCCNCc2ccsc2)nc1,34.12,-
N[C@@H]1CCc2ccccc21,23.47,10.8
Cc1nnc(CCNC(=O)C2CC(=O)N(C)C2(C)C)s1 (configuration not stated),-,-5.287
O=C1CCC2(CNC(=O)c3ccco3)CCCC=C2N1 (configuration not stated),-10.24,-
O=C(C1CC12CCNCC2)N1CCCC1 (configuration not stated),-,-10.72
COCC(=O)NCCc1noc(-c2ccccc2)n1,27.63,-
Cc1ccccc1C(=O)OCc1nc(N)nc(N)n1,-,10.84
c1cncc(C2=NCCCC2)c1,-205.4,-
Cc1ccn(CC(=O)N2CCC3(CCC3O)CC2)n1 (configuration not stated),9.771,-
CCC(C)NC(=O)c1nc2ccccc2n(C)c1=O (configuration not stated),-5.948,-
Cc1cc(NC(=O)CN(C)C)ccc1OCCO,19.64,-
OCc1ccc(OCCF)cn1,-13.74,-
Nc1nnc(CS(=O)(=O)Cc2ccccc2)s1,-6.357,-
CCC[C@H]1CN(S(=O)(=O)Cc2ccc(F)cc2)C[C@@H]1N,51.29,-
CC(N)c1nnc(-c2ccccc2F)s1 (configuration not stated),18.76,-
O=C(CCC1CCCC1)N1CCNCC1,-,34.01
Nc1ccc(CN2CCCCC2)cn1,-,-1.915
CC(C)CS(=O)(=O)CC(=O)NC1CCc2nccn2C1 (configuration not stated),-10.27,-
CC(C#N)N(C)S(=O)(=O)c1cccc2ncccc12 (configuration not stated),33.42,-
Cn1cc(C(N)=O)c(NCc2ccc(F)c(C#N)c2)n1,13.78,-
CC1(O)CN(S(=O)(=O)CCCC#N)C1,-,0.05113
OCC1(O)CCCN(CCn2cc(Cl)cn2)CC1 (configuration not stated),-2.672,-4.728
O=C(NC(c1ccccn1)C(F)(F)F)C1CCOCC1 (configuration not stated),-,0.06998
CCS(=O)(=O)N(C)CCCNc1cc(C)ccn1,27.22,7.125
CC(C)(C)OC(=O)N1CCn2ccnc2C1,6.674,-
CC(N)CN1CCN(c2ncccn2)CC1 (configuration not stated),-6.778,-

Some entries from above, unchanged:

Result for Cn1cc(C(N)=O)c(NCc2ccc(F)c(C#N)c2)n1 was Mtb glucose medium: 13.78%.
Result for CCS(=O)(=O)N(C)CCCNc1cc(C)ccn1 was Mtb glucose medium: 27.22%; Mtb cholesterol medium: 7.125%.
Result for CCN1CCN(c2ccc(NC(=O)C(C)C)cc2)CC1 was Mtb glucose medium: -5.102%.